Results of unrelated studies side by side (data: NIAID ChemDB).

All rows: tests on isolated targets; species: HIV-1; protein: Reverse transcriptase

An empty or dashed field is not shown. ICn: concentration for n% inhibition. a–b is a range or a potency band. Lines come from different laboratories, so protocols vary.

{"compound": "C[C@@H](CNC(=S)Nc1ccc(Cl)cn1)C1CCCCC1", "endpoint": "IC50", "result": "1.4 µM"}
{"compound": "O=C(O)P(=O)(O)Oc1ccccc1", "endpoint": "IC50", "read by": "nucleotide incorporation", "result": "6.9 µM"}
{"compound": "CCC1(c2ccc(COc3ccccc3Cl)cc2)Oc2ccccc2-n2cccc2C1=O", "endpoint": "IC50", "read by": "nucleotide incorporation / radiometric", "mutations": "RT-K103N", "result": "5 µM"}
{"compound": "Nc1ccn([C@H]2CC[C@@H](COP(=O)(O)OP(=O)(O)OP(=O)(O)O)O2)c(=O)n1", "endpoint": "IC50", "read by": "nucleotide incorporation / radiometric", "mutations": "RT-V106A", "result": "3.23 µM"}
{"compound": "O=C(CSc1nnnn1-c1cccc2ccccc12)Nc1ccccc1F", "endpoint": "IC50", "read by": "nucleotide incorporation / radiometric", "result": "<2 µM"}
{"compound": "O=C(/C=C/c1ccc(O)c(O)c1)O[C@@H]1CC(O)(C(=O)O)C[C@@H](OC(=O)/C=C/c2ccc(O)c(O)c2)C1O", "endpoint": "IC50", "read by": "RT activity / absorbance", "result": "315 µM"}
{"compound": "CCC(NC(=S)Nc1nc2ccc(OC)cc2s1)c1ccccc1", "endpoint": "IC50", "result": ">100 µM"}
{"compound": "CCC1(c2cccc(Cl)c2)Cc2ccccc2-n2cccc2C1=O", "endpoint": "IC50", "read by": "nucleotide incorporation / radiometric", "mutations": "RT-K103N", "result": "10 µM"}
{"compound": "C=CCOC(=O)N1c2cc(Cl)ccc2NC(=O)[C@@H]1C", "endpoint": "IC50", "read by": "nucleotide incorporation", "result": "0.01–0.1 µg/mL"}
{"compound": "Cc1nc(N2C(=O)CSC2c2c(F)cccc2Cl)ccc1Br", "endpoint": "IC50", "read by": "ELISA", "result": "<10 µg/mL"}
{"compound": "O=C(O)C1=C[C@@H](O)[C@@H](O)[C@H](OC(=O)c2cc(O)c(O)c(O)c2)C1", "endpoint": "IC50", "result": "92 µM"}
{"compound": "C[C@H](CNC(=S)Nc1ccccn1)C1CCCCC1", "endpoint": "IC50", "result": ">100 µM"}
{"compound": "COc1ccc2c(c1)N(C(=O)OC(C)C)[C@@H](CCSC)C(=S)N2", "endpoint": "IC50", "read by": "nucleotide incorporation", "result": "0.1–1 µg/mL"}
{"compound": "O=c1cc(-c2ccc(O)c(-c3c(O)cc(O)c4c(=O)cc(-c5ccc(O)cc5)oc34)c2)oc2cc(O)cc(O)c12", "endpoint": "IC50", "read by": "RT activity / fluorescence", "result": "30.9 µg/mL"}
{"compound": "Cc1cn([C@H]2C=C[C@@H](COP(=O)(O)OP(=O)(O)OP(=O)(O)O)O2)c(=O)[nH]c1=O", "endpoint": "IC50", "read by": "ELISA", "strain": "HXB2", "result": "0.011 µM"}
{"compound": "O=C(/C=C/c1ccc(O)c(O)c1)OC1[C@H](O)CC(O)(C(=O)O)C[C@H]1O", "endpoint": "IC50", "read by": "RT activity / absorbance", "result": "387 µM"}
{"compound": "C[C@H]1c2cccc(O)c2C(O)=C2C(=O)[C@]3(O)C(O)=C(C(N)=O)C(=O)[C@@H](N(C)C)[C@@H]3[C@@H](O)[C@@H]21", "endpoint": "IC50", "read by": "nucleotide incorporation", "result": "35 µM"}
{"compound": "Nc1ncnc2c1ncn2CCOCP(=O)(O)O", "endpoint": "IC50", "read by": "nucleotide incorporation / radiometric", "result": ">500 µM"}
{"compound": "Cc1cn([C@H]2C=C[C@@H](COP(=O)(O)OP(=O)(O)OP(=O)(O)O)O2)c(=O)[nH]c1=O", "endpoint": "IC50", "read by": "nucleotide incorporation / radiometric", "strain": "WT", "result": "0.05 µM"}
{"compound": "CC(C)=CCN1c2cc(Cl)ccc2NC(=O)[C@@H]1Cc1ccccc1", "endpoint": "IC50", "read by": "nucleotide incorporation", "result": ">10 µg/mL"}
{"compound": "O=C(O[C@@H]1Cc2c(O)cc(O)cc2O[C@@H]1c1cc(O)c(O)c(O)c1)c1cc(O)c(O)c(O)c1", "endpoint": "IC50", "read by": "RT activity / fluorescence", "result": "11.7 µg/mL"}
{"compound": "Cc1csc(NC(=S)N[C@@H](C)c2cccc3ccccc23)n1", "endpoint": "IC50", "result": ">100 µM"}
{"compound": "C=C(C)OC(=O)N1c2ccc(C)cc2NC(=O)C1(CC)CC", "endpoint": "IC50", "read by": "nucleotide incorporation", "result": "0.01–0.1 µg/mL"}
{"compound": "CCC1(c2ccc(CCc3ccccc3)cc2)Oc2ccccc2-n2cccc2C1=O", "endpoint": "IC50", "read by": "nucleotide incorporation / radiometric", "mutations": "RT-Y181I", "result": ">10 µM"}
{"compound": "O=C(O)/C=C/c1ccc(O)c(O)c1", "endpoint": "IC50", "result": ">1000 µM"}
{"compound": "CN(C)c1ccc(O)c2c1C[C@H]1C[C@H]3[C@H](N(C)C)C(=O)C(C(N)=O)=C(O)[C@@]3(O)C(=O)C1=C2O", "endpoint": "IC50", "read by": "nucleotide incorporation", "result": "1200 µM"}
{"compound": "CCC1(c2cccc(N)c2)Oc2ccccc2-n2cccc2C1=O", "endpoint": "IC50", "read by": "nucleotide incorporation / radiometric", "mutations": "RT-K103N", "result": "2 µM"}
{"compound": "O=c1cc(-c2ccc(O)cc2)oc2cc(O)c(O)c(O)c12", "endpoint": "IC50", "read by": "RT activity / fluorescence", "result": "53.1 µg/mL"}
{"compound": "COc1c(O)cc2oc(-c3ccc(O)cc3)cc(=O)c2c1O", "endpoint": "IC50", "read by": "RT activity / absorbance", "result": "345 µM"}
{"compound": "CCC1(c2cccc(COc3ccccc3)c2)Oc2ccccc2-n2cccc2C1=O", "endpoint": "IC50", "read by": "nucleotide incorporation / radiometric", "mutations": "RT-Y188L", "result": "10 µM"}
{"compound": "O=C(CSc1nnnn1-c1ccccc1Cl)Nc1ccccc1Cl", "endpoint": "IC50", "read by": "nucleotide incorporation / radiometric", "result": "<2 µM"}
{"compound": "Cc1cn([C@H]2C=C[C@@H](COP(=O)(O)OP(=O)(O)OP(=O)(O)O)O2)c(=O)[nH]c1=O", "endpoint": "IC50", "read by": "nucleotide incorporation / radiometric", "mutations": "RT-T139V", "result": "0.14 µM"}
{"compound": "CCC(NC(=S)Nc1cc(C)cc(C)n1)c1ccccc1", "endpoint": "IC50", "result": ">100 µM"}
{"compound": "Cc1cc(C)c(-n2nnnc2SCC(=O)Nc2cccc(Cl)c2Cl)c(C)c1", "endpoint": "IC50", "read by": "nucleotide incorporation / radiometric", "result": "<2 µM"}
{"compound": "O=C(/C=C/c1ccc(O)c(O)c1)O[C@@H]1CC(O)(C(=O)O)C[C@@H](OC(=O)/C=C/c2ccc(O)c(O)c2)C1O", "endpoint": "IC50", "result": "1.16 µM"}
{"compound": "CSC[C@H]1C(=S)Nc2ccc(F)cc2N1C(=O)OC(C)C", "endpoint": "IC50", "read by": "nucleotide incorporation", "result": "0.01–0.1 µg/mL"}
{"compound": "Cc1cc(C)c(-n2nnnc2SCC(=O)Nc2ccccc2C#N)c(C)c1", "endpoint": "IC50", "read by": "nucleotide incorporation / radiometric", "result": "<2 µM"}
{"compound": "C=C(C)OC(=O)N1c2cc(Cl)ccc2NC(=O)[C@@H]1CSC", "endpoint": "IC50", "read by": "nucleotide incorporation", "result": "0.01–0.1 µg/mL"}
{"compound": "C#CC1(c2ccccc2)c2cc(Cl)ccc2NC(=O)N1C", "endpoint": "IC50", "result": "0.043 µM"}
{"compound": "CCC1(c2ccc(Cn3ccsc3=N)cc2)Oc2ccccc2-n2cccc2C1=O", "endpoint": "IC50", "read by": "nucleotide incorporation / radiometric", "mutations": "RT-Y188L", "result": ">10 µM"}
{"compound": "CSC[C@H]1C(=S)Nc2ccc(Cl)cc2N1Cc1ccccn1", "endpoint": "IC50", "read by": "nucleotide incorporation", "result": "0.01–0.1 µg/mL"}
{"compound": "CC(C)=CCN1Cc2cccc3[nH]c(=S)n(c23)C[C@@H]1C", "endpoint": "IC50", "read by": "nucleotide incorporation", "result": "0.24 µM"}
{"compound": "CO[C@@H]1[C@@H](OC(N)=O)[C@@H](O)[C@H](Oc2ccc3c(O)c(NC(=O)c4ccc(O)c(CC=C(C)C)c4)c(=O)oc3c2C)OC1(C)C", "endpoint": "IC50", "read by": "nucleotide incorporation", "result": "520 µM"}
{"compound": "Nc1nc2c(ncn2[C@H]2CC[C@@H](COP(=O)(O)OP(=O)(O)OP(=O)(O)O)O2)c(=O)[nH]1", "endpoint": "IC50", "read by": "nucleotide incorporation / radiometric", "mutations": "RT-V106A", "result": "0.16 µM"}
{"compound": "Cc1cc(C)c(-n2nnnc2SCC(=O)Nc2ccc(C#N)cc2Cl)c(C)c1", "endpoint": "IC50", "read by": "nucleotide incorporation / radiometric", "result": "<2 µM"}
{"compound": "O=P(O)(O)OP(=O)(O)O", "endpoint": "Ki", "mutations": "RT-Q161L", "result": "2500 µM"}
{"compound": "C=C(C)OC(=O)N1c2cc(Cl)ccc2NC(=O)C1(C)C", "endpoint": "IC50", "read by": "nucleotide incorporation", "result": "0.1–1 µg/mL"}
{"compound": "Cc1cccc(Cl)c1-n1nnnc1SCC(=O)Nc1ccccc1[N+](=O)[O-]", "endpoint": "IC50", "read by": "nucleotide incorporation / radiometric", "result": "<2 µM"}
{"compound": "Cc1nc(N2C(=O)CSC2c2c(F)cccc2F)ccc1Br", "endpoint": "IC50", "read by": "ELISA", "result": ">10 µg/mL"}
{"compound": "CN(C)[C@@H]1C(=O)C(C(N)=O)=C(O)[C@@]2(O)C(=O)C3=C(O)c4c(O)ccc(Cl)c4[C@@](C)(O)C3C[C@@H]12", "endpoint": "IC50", "read by": "nucleotide incorporation", "result": "96 µM"}
{"compound": "O=c1c(O)c(-c2ccc(O)cc2)oc2cc(O)cc(O)c12", "endpoint": "IC50", "read by": "RT activity / fluorescence", "result": "41.4 µg/mL"}
{"compound": "Cc1cn([C@H]2C[C@H](N=[N+]=[N-])[C@@H](COP(=O)(O)OP(=O)(O)OP(=O)(O)O)O2)c(=O)nc1N", "endpoint": "Ki", "read by": "nucleotide incorporation", "result": "0.0093 µM"}
{"compound": "C[C@@H](CNC(=S)Nc1ccccn1)C1CCCCC1", "endpoint": "IC50", "result": ">100 µM"}
{"compound": "CC(C)=CCN1c2cc(Cl)ccc2NC(=O)[C@@H]1C", "endpoint": "IC50", "read by": "nucleotide incorporation", "result": "0.1–1 µg/mL"}
{"compound": "COC(=O)C1(O)CC(OC(=O)/C=C/c2ccc(O)c(O)c2)C(O)C(OC(=O)/C=C/c2ccc(O)c(O)c2)C1", "endpoint": "IC50", "result": "1.7 µM"}
{"compound": "Cc1cc(C)c(-n2nnnc2SCC(=O)Nc2ccc(F)cc2[N+](=O)[O-])c(C)c1", "endpoint": "IC50", "read by": "nucleotide incorporation / radiometric", "result": "<2 µM"}
{"compound": "O=C1CSC(c2cccnc2)N1Cc1ccco1", "endpoint": "IC50", "read by": "ELISA", "result": ">10 µg/mL"}
{"compound": "O=C(O)C1=C[C@@H](O)[C@@H](OC(=O)c2cc(O)c(O)c(O)c2)[C@H](OC(=O)c2cc(O)c(O)c(O)c2)C1", "endpoint": "IC50", "result": "1.77 µM"}

5 of the rows above, restated:

compound	endpoint	read by	strain	mutations	result
CC(C)=CCN1c2cc(Cl)ccc2NC(=O)[C@@H]1Cc1ccccc1	IC50	nucleotide incorporation	-	-	>10 µg/mL
O=C(O)P(=O)(O)Oc1ccccc1	IC50	nucleotide incorporation	-	-	6.9 µM
Cc1nc(N2C(=O)CSC2c2c(F)cccc2Cl)ccc1Br	IC50	ELISA	-	-	<10 µg/mL
CCC(NC(=S)Nc1nc2ccc(OC)cc2s1)c1ccccc1	IC50	-	-	-	>100 µM
Cc1cccc(Cl)c1-n1nnnc1SCC(=O)Nc1ccccc1[N+](=O)[O-]	IC50	nucleotide incorporation / radiometric	-	-	<2 µM